Results of unrelated studies side by side (data: NIAID ChemDB).

All rows: tests in culture; species: Mycobacterium bovis

Two numbers with a dash give a range or band. Conditions beyond the fields shown may differ between rows. ECn is the concentration giving n% inhibition of infection, replication or growth. MIC50, MIC90 and the like: level of inhibition, or share of isolates inhibited. Blank or dashed fields: not listed here.

smiles,endpoint,strain or isolate,method,result
Cc1cc(=O)n([C@@H]2O[C@H](CO)C3CC(=S)OC32)c(=O)[nH]1,MIC,BCG,-,500 µg/mL
O=c1[nH]c2ccc(O)cc2c(O)c1-c1ccccc1,MIC90,AN5 lux,luminescence,10.4 µM
CCCCCCCCO[C@H]1COc2nc([N+](=O)[O-])cn2C1,MIC,rBCG-lux,-,8 µg/mL
CCc1cc(C(N)=S)ccn1,MIC,BCG (PMV261::KASAB),-,1.5 µg/mL
Cc1cn(C/C=C\Cn2c(=O)n3c4c(cccc42)CCC3)c(=O)[nH]c1=O,EC50,BCG Pasteur,resazurin / absorbance,>160 µg/mL
O=C(O)CCCCCCCCCC(=O)C1=CCCC1,MIC,BCG Pasteur,GFP,13.8 µM
Oc1ccc(-c2cnc3cc4ccccc4cc3n2)cc1O,EC50,BCG,-,32 µM
C=C/C(C)=C/[C@@]1(C)SC(=O)C(C)=C1O,MIC,BCG (PMV261::KASA),-,80 µg/mL
O=C(N[C@@H]1COc2nc([N+](=O)[O-])cn2C1)c1ccccc1,MIC,rBCG-lux,-,>8 µg/mL
Clc1cccc(-c2cnc3cc4ccccc4cc3n2)c1,EC50,BCG,-,18 µM
CCCSc1ccc(NC(=S)Nc2ccc(OCCC(C)C)cc2)cc1,MIC,BCG,-,1.5 µg/mL
CCCCCCCCOC1CCOc2nc([N+](=O)[O-])cn2C1,MIC,rBCG-lux,-,>50 µg/mL
c1ccc(-c2cnc3cc4ccccc4cc3n2)cc1,EC50,BCG,-,0.9 µM
CCCCCCCCO[C@@H]1COc2nc([N+](=O)[O-])cn2C1,MIC,rBCG-lux,-,1 µg/mL
O=c1[nH]c(=O)n(C/C=C\CN2c3cccc4c3N(CCC4)S2(=O)=O)cc1Br,EC50,BCG Pasteur,resazurin / absorbance,>160 µg/mL
CCCCCCCCO[C@H]1COc2nc([N+](=O)[O-])cn2C1,MIC,rBCG-lux,-,8 µg/mL
CC1(C)CC(C)(C)c2cc(NC(=S)Nc3ccc([N+](=O)[O-])cc3)ccc2O1,MIC,BCG,-,20–40 µg/mL
COC(=O)N1CCc2c(OC)c(OC)c(O)c3c2[C@@H]1Cc1cc2c(cc1-3)OCO2,MIC,BCG,resazurin,256 µM
O=c1c(-c2ccccc2)c(O)c2ccccc2n1-c1ccccc1,MIC90,AN5 lux,luminescence,9.5 µM
O=C(Nc1ccc(Cl)cc1)N[C@@H]1COc2nc([N+](=O)[O-])cn2C1,MIC,rBCG-lux,-,≤0.008 µg/mL
O=c1[nH]c2cc(O)ccc2c(O)c1-c1ccccc1,MIC90,AN5 lux,luminescence,11.5 µM
CC(C)CSc1ccc(NC(=S)Nc2ccc(SCC(C)C)cc2)cc1,MIC,BCG,-,0.06 µg/mL
C/C=C/C/C=C/CCC(=O)[C@H]1O[C@H]1C(N)=O,MIC,BCG (PMV261::KASA),-,0.1 µg/mL
c1ccc(Nc2cnc3cc4ccccc4cc3n2)cc1,EC50,BCG,-,<1 µM
CC(C)CCOc1ccc(NC(=S)Nc2ccc(OCCC(C)C)cc2)cc1,MIC,BCG,-,0.5–1 µg/mL
COc1cc(CC(C)C(C)Cc2ccc(O)c(OC)c2)ccc1O,MIC,BCG,resazurin,256 µM
CCCCCCCCCCC[C@@H](C[C@@H]1OC(=O)[C@H]1CCCCCC)OC(=O)[C@H](CC(C)C)NC=O,MIC,-,broth dilution,5 µg/mL
Oc1ccc(Nc2cnc3cc4ccccc4cc3n2)cc1O,EC50,BCG,-,<1 µM
C[C@]1(COc2ccc(N3CCC(Oc4ccc(OC(F)(F)F)cc4)CC3)cc2)Cn2cc([N+](=O)[O-])nc2O1,MIC,BCG/GLAXO,-,0.012 µg/mL
CCCCCCCCCCC[C@H](CC(=O)[C@@H](CC(C)C)NC=O)CC1OC(=O)[C@H]1CCCCCC,MIC99,-,-,7.5 µg/mL
CCOC(=O)c1ccc(NC(=O)Nc2ccc3c(c2)C(C)(C)CC(C)(C)O3)cc1,MIC,BCG,-,20–40 µg/mL
CCCCCC(=O)N[C@@H]1COc2nc([N+](=O)[O-])cn2C1,MIC,rBCG-lux,-,2 µg/mL
CCOC(=O)c1ccc(NC(=S)Nc2cccc3c2OC(C)(C)CC3(C)C)cc1,MIC,BCG,-,20–40 µg/mL
O=C(CCCCCCCC[C@H]1C=CCC1)OCC(O)CO,MIC,BCG Pasteur,GFP,0.52 µM
CCOC(=O)c1ccc(NC(=O)Nc2cccc3c2OC(C)(C)CC3(C)C)cc1,MIC,BCG,-,20–40 µg/mL
CC(C)CCOc1ccc(NC(=S)Nc2ccc(OCCC(C)C)cc2)cc1,MIC,BCG (PMV261::KASA),-,0.25 µg/mL
O=c1[nH]c2ccc(F)cc2c(O)c1-c1ccccc1,MIC90,AN5 lux,luminescence,5.3 µM

For reference, 3 entries again:

smiles,endpoint,strain or isolate,method,result
O=c1[nH]c2cc(O)ccc2c(O)c1-c1ccccc1,MIC90,AN5 lux,luminescence,11.5 µM
c1ccc(-c2cnc3cc4ccccc4cc3n2)cc1,EC50,BCG,-,0.9 µM
CCCCCCCCO[C@H]1COc2nc([N+](=O)[O-])cn2C1,MIC,rBCG-lux,-,8 µg/mL